Data: patent publication US20100119479A1, “THERAPEUTIC ANTIVIRAL PEPTIDES” (INTERMUNE, INC., priority 2008, published 2010)
pEC50, pIC50: −log10 of the molar value. Structures were worked out from names or drawings and are uncertain.

Sequences of proteins named here, by UniProt entry; tags and fusion partners are left off. Residues count along the entry.
UniProt Q9WMX2, 1027-1657 limits assumed: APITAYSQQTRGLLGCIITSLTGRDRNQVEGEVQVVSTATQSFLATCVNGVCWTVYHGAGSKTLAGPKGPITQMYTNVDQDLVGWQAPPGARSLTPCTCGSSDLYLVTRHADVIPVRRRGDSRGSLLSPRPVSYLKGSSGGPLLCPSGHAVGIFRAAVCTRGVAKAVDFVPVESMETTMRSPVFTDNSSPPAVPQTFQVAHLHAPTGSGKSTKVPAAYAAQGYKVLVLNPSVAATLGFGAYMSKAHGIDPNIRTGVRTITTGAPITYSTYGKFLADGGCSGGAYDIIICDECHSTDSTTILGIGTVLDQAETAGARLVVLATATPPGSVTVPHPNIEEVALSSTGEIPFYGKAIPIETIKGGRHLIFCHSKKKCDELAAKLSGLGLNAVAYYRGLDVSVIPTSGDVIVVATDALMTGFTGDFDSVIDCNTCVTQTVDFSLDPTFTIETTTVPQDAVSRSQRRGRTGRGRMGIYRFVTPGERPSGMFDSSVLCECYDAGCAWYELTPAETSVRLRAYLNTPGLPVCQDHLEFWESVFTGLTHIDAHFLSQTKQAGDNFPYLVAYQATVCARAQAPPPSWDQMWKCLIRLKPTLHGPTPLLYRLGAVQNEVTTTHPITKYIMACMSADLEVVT
UniProt Q9WMX2, 1658-1711 partner limits assumed: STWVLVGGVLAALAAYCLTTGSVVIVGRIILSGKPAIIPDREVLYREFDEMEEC

How the values were obtained:
[1] = biological target: full-length NS3/NS4A-2 (HCV NS3 protease) (Hepatitis C virus genotype 1b, UniProt Q9WMX2); assay: NS3 Inhibition Assay (NS3-NS4 protease assay, RETS1 substrate); assay type: biochemical; conditions: NS3/NS4A-2 protease
Experimental: NS3 Complex Formation with NS4A-2.
Recombinant E. coli or Baculovirus full-length NS3 was diluted to 3.33 μM with assay buffer and transferred material to an eppendorf tube and placed in a water bath in a 4° C. refrigerator. The appropriate amount of NS4A-2 diluted to […] in assay buffer was added to equal the volume of NS3 above (conversion factor—3.8 mg/272 μL assay buffer). The material was transferred to an eppendorf tube and placed in water bath in a 4° C. refrigerator.
After equilibration to 4° C., equal volumes of NS3 and NS4A-2 solutions were combined in an eppendorf tube, mix gently with a manual pipettor, and incubate mixture for 15 minutes in the 4° C. water bath. Final concentrations in the mixture are 1.67 μM NS3, 4.15 mM NS4A-2 (2485-fold molar excess NS4A-2).
After 15 minutes at 4° C., the NS3/NS4A-2 eppendorf tube was removed and place it in a room temperature water bath for 10 minutes. […]
The plate was read in kinetic mode on the Molecular Devices SpectraMax Gemini XS plate reader. Reader settings: Read time: 30 minutes, Interval: 36 seconds, Reads: 51, Excitation λ: 335 nm, Emission λ: 495 nm, cutoff: 475 nm, Automix: off, Calibrate: once, PMT: high, Reads/well: 6, Vmax pts: 21 or 28/51 depending on length of linearity of reaction
IC50s are determined using a four parameter curve fit equation, and converted to Ki's using the following Km's: […]

[2] = system: HCV sub-genomic replicon, GS4.3 (HuH-7 hepatoma cells); assay: Quantitation by ELISA of NPTII in the HCV sub-genomic replicon, GS4.3; assay type: cell-based, hepatitis C virus (HCV); conditions: GS4.3 replicon cells, 72 h incubation
Experimental: Quantitation by ELISA of the Selectable Marker Protein, Neomycin Phosphotransferase II (NPTII) in the HCV Sub-Genomic Replicon, GS4.3
The HCV sub-genomic replicon (1377/NS3-3′, accession No. AJ242652), stably maintained in HuH-7 hepatoma cells, was created by Lohmann et al. Science 285: 110-113 (1999). The replicon-containing cell culture, designated GS4.3, was obtained from Dr. Christoph Seeger of the Institute for Cancer Research, Fox Chase Cancer Center, Philadelphia, Pa. […]
24 h prior to the assay, GS4.3 cells were collected, counted, and plated in 96-well plates (Costar 3585) at 7500 cells/well in […] standard maintenance medium (above) and incubated in the conditions above. […]
An NPTII Elisa kit was obtained from AGDIA, Inc. (Compound direct ELISA test system for Neomycin Phosphotransferase II, PSP 73000/4800). […] Plates were read at 450 nm on a Molecular Devices Versamax plate reader.
Inhibitor effect was expressed as a percentage of DMSO-treated control signal, and inhibition curves were calculated using a 4-parameter equation: y=A+((B−A)/(1+((C/x)̂D))), where C is half-maximal activity or EC50.

In the case of `CC[C@@H]1C[C@]1(NC(=O)[C@@H]1C[C@@H](OC(=O)N2Cc3cccc(F)c3C2)CN1C(=O)[C@@H](Nc1cccc(C(F)(F)F)c1)C(C)(C)C)C(=O)NS(=O)(=O)C1CC1`, the pIC50 [1] was > 7.00 and the pEC50 [2] was > 7.00.
